Patent publication US20040121316A1 (priority 2002, published 2004)

Experiments:
mutant HIV-1 I84V/L90M = assay: Resistance Evaluation, I84V/L90M fold change; format: cell-based; conditions: EC50 of mutant I84V/L90M relative to wild type; class symbols
HIV-1 84V90M = conditions: MT-4, 84V90M; read-out: Cell-based assay (MT-4) EC50/nM 84V90M
84V90M HIV protease = 84V90M HIV protease (Human immunodeficiency virus type 1 group M subtype B, UniProt P04585, I572V/L578M); format: biochemical, HIV-1; conditions: Enzymatic assay
[1] = tested on: recombinant HIV-1 10F 46I 71V 82T 90M; assay: Cross-Resistance Profile Assay; format: cell-based; conditions: protease mutations 10F 46I 71V 82T 90M
[2] = tested on: recombinant HIV-1 30N 50S 82I 88D; conditions: protease mutations 30N 50S 82I 88D
[3] = tested on: recombinant HIV-1 10I 84V 71V 73S 90M; conditions: protease mutations 10I 84V 71V 73S 90M
[4] = tested on: recombinant HIV-1 46I 47V 50V; format: cell-based; conditions: protease mutations 46I 47V 50V
[5] = tested on: recombinant HIV-1 46I 84A; assay: Cross-Resistance Profile Assay; conditions: protease mutations 46I 84A
[6] = tested on: recombinant HIV-1 54V 71V 82S; assay: Cross-Resistance Profile Assay; conditions: protease mutations 54V 71V 82S
[7] = tested on: recombinant HIV-1 10I 48V 54V 82A; conditions: protease mutations 10I 48V 54V 82A
[8] = tested on: recombinant HIV-1 10I 48V 71V 82A 90M; conditions: protease mutations 10I 48V 71V 82A 90M
[9] = tested on: recombinant HIV-1 48V 54V 71V 82S; format: cell-based; conditions: protease mutations 48V 54V 71V 82S
[10] = tested on: recombinant HIV-1 10R 46I 82T 84V; assay: Cross-Resistance Profile Assay; conditions: protease mutations 10R 46I 82T 84V
[11] = tested on: recombinant HIV-1 8K 46I 90M; assay: Cross-Resistance Profile Assay; format: cell-based; conditions: protease mutations 8K 46I 90M

Compound | I84V/L90M fold change (mutant HIV-1 I84V/L90M) | Fold Change in EC50 Relative to WT HIV-1 [1] | Fold Change in EC50 Relative to WT HIV-1 [2] | Fold Change in EC50 Relative to WT HIV-1 [3] | Fold Change in EC50 Relative to WT HIV-1 [4] | Fold Change in EC50 Relative to WT HIV-1 [5] | Fold Change in EC50 Relative to WT HIV-1 [6] | Fold Change in EC50 Relative to WT HIV-1 [7] | Fold Change in EC50 Relative to WT HIV-1 [8] | Fold Change in EC50 Relative to WT HIV-1 [9] | Fold Change in EC50 Relative to WT HIV-1 [10] | Fold Change in EC50 Relative to WT HIV-1 [11] | also measured
CCOC(=O)C(C)OP(=O)(COc1ccc(CC(NC(=O)OC2COC3OCCC23)C(O)CN(CC(C)C)S(=O)(=O)c2ccc(OC)cc2)cc1)Oc1ccccc1 (stereo not drawn) [Example 31e] | − (≦3) | – | – | – | – | – | – | – | – | – | – | – | –
CCOC(=O)C(C)NP(=O)(COc1ccc(CC(NC(=O)OC2COC3OCCC23)C(O)CN(CC(C)C)S(=O)(=O)c2ccc(OC)cc2)cc1)Oc1ccccc1 (stereo not drawn) [Example 30b] | − (≦3) | – | – | – | – | – | – | – | – | – | – | – | –
CCCCOC(=O)C(C)NP(=O)(COc1ccc(CC(NC(=O)OC2COC3OCCC23)C(O)CN(CC(C)C)S(=O)(=O)c2ccc(OC)cc2)cc1)NC(C)C(=O)OCCCC (stereo not drawn) [drawing 612 R1=Ala-Bu R2=Ala-Bu] | − (≦3) | – | – | – | – | – | – | – | – | – | – | – | –
DMP-850 [reference compound] | – | – | – | – | – | – | – | – | – | – | – | – | EC50 (HIV-1 84V90M): 819 nM; IC50 (84V90M HIV protease): 9.1 nM
CCOC(=O)C(C)NP(=O)(COc1ccc(CC(NC(=O)OC2COC3OCCC23)C(O)CN(CC(C)C)S(=O)(=O)c2ccc(OC)cc2)cc1)Oc1ccccc1 (stereo not drawn) [GS-16571] | – | 0.8 fold | 0.7 fold | 0.9 fold | 0.8 fold | 1 fold | 0.6 fold | 0.3 fold | 0.2 fold | 0.2 fold | 0.6 fold | 1.8 fold | –
CCCCOC(=O)C(C)NP(=O)(COc1ccc(CC(NC(=O)OC2COC3OCCC23)C(O)CN(CC(C)C)S(=O)(=O)c2ccc(OC)cc2)cc1)NC(C)C(=O)OCCCC (stereo not drawn) [GS-16503] | – | 1 fold | 0.6 fold | 2 fold | 3.3 fold | 1 fold | 0.9 fold | 0.4 fold | 0.4 fold | 0.5 fold | 1 fold | 1.2 fold | –
